Results deposited as PubChem BioAssay AID504761 (Drosophila RNAi Screening Center, 2011)
Assay: 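Insect host genes that dengue virus relies on to spread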 (primary screen). Cells: D.Mel-2 cells from Drosophila. Reagent: long dsRNA against Drosophila genes. Conditions: infection with dengue virus type 2; dose and infection time not stated. Measurement: 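Cells stained for dengue envelope protein and imaged; percent of infected cells per well on duplicate plates, ranked by infection, with stained nuclei counted for cell number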. Reading the numbers: infection score: higher = more virus-infected cells; cell count: higher = more cells in the well. Active means: 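Low infection ranks in the two replicates (chance level up to 0.065) followed by a retest with a 1.5-fold or larger significant decrease, p below 0.05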. Meaning of the calls: active = confirmed: knock-down lowers infection; inactive = not picked or not confirmed.
The deposit covers about 22,000 reagents; shown is an unselected part of those with a known target gene and a result. In the full data, 116 (0.52%) were called active. 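Calls depend on retest data that are not deposited; infection was ranked per plate without normalising between plates; the unit of the infection score is not given.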 Raw values are not corrected between plates. Reagents against one gene are numbered here. The record does not give: the amount of reagent, the time to read-out.

target gene | dsRNA no. | infection score, replicate 1 | infection score, replicate 2 | cell count, replicate 1 | cell count, replicate 2 | activity call
CAH2 | 1 | 1.41 | 1.41 | 6152 | 6580 | inactive
Gabat | 1 | 4.33 | 4.75 | 6212 | 6801 | inactive
TbCMF46 | 1 | 7.22 | 2.92 | 6648 | 6861 | inactive
Jon99Ciii | 1 | 5.72 | 7.53 | 4612 | 930 | inactive
idc | 1 | 9.09 | 6.13 | 6324 | 6325 | inactive
CG14657 | 1 | 1.85 | 7.7 | 6848 | 6717 | inactive
CG14657 | 2 | 6.01 | 10.7 | 5987 | 6630 | inactive
Bet5 | 1 | 4.18 | 1.78 | 981 | 6446 | inactive
CG16775 | 1 | 7.37 | 7.12 | 6226 | 6573 | inactive
CG5810 | 1 | 11.7 | 25.9 | 3066 | 5108 | inactive
CG5810 | 2 | 5.67 | 2.94 | 6049 | 6492 | inactive
ptc | 1 | 8 | 2.71 | 6548 | 6357 | inactive
ptc | 2 | 15.1 | 10.2 | 2622 | 6451 | inactive
Gprk1 | 1 | – | 0.29 | 6306 | 6862 | inactive
Gprk1 | 2 | 3.39 | 3.56 | 6836 | 6397 | inactive
CG13833 | 1 | 5.33 | 18.1 | 6754 | 4260 | inactive
RhoGAP92B | 1 | 2.13 | 5.89 | 5719 | 5569 | inactive
RhoGAP92B | 2 | 11 | 9.37 | 4394 | 5787 | inactive
CG8701 | 1 | 8.73 | 8.24 | 6291 | 6240 | inactive
SIDL | 1 | 2.53 | 17.1 | 830 | 2683 | inactive
CG15927 | 1 | 13.4 | 8.1 | 6259 | 6504 | inactive
CG15927 | 2 | 26.4 | 11.5 | 4685 | 3359 | inactive
Tsp42Ej | 1 | 14.8 | 31.1 | 6850 | 5666 | inactive
Tsp42Ej | 2 | 21.8 | 6.47 | 4460 | 6567 | inactive
Cog6 | 1 | 14.3 | 4.98 | 5841 | 6229 | inactive
Cog6 | 2 | – | 16.8 | 339 | 2921 | inactive
E(spl)m6-BFM | 1 | 17.5 | 3.79 | 5563 | 6939 | inactive
wkd | 1 | 4.61 | 9.02 | 6242 | 5977 | inactive
CG42258 | 1 | 9.79 | 0.97 | 6455 | 6794 | inactive
CG42258 | 2 | 1.58 | 10.1 | 7046 | 3014 | inactive
CG42258 | 3 | 12.2 | 38 | 5615 | 5687 | inactive
CG42258 | 4 | 12.3 | 7.73 | 1111 | 5627 | inactive
CG3091 | 1 | 3.75 | 4.65 | 6480 | 6565 | inactive
Dlip2 | 1 | 8.92 | 5.35 | 6667 | 6652 | inactive
CG13733 | 1 | 7.26 | 4.24 | 5714 | 5490 | inactive
CG30430 | 1 | 0.21 | 0.66 | 6648 | 6701 | inactive
Prx6a | 1 | 5.09 | 1.82 | 6520 | 6365 | inactive
CG32249 | 1 | 6.03 | 9.34 | 6551 | 6234 | inactive
CG32249 | 2 | 2.79 | 3.46 | 6199 | 6106 | inactive
CG32249 | 3 | 3.01 | 1.08 | 5942 | 6964 | inactive
sog | 1 | 5.03 | 8.62 | 6069 | 5977 | inactive
RpL37-1 | 1 | 3.04 | 8.23 | 6587 | 6246 | inactive
RpL37-1 | 2 | 0.73 | 4.14 | 2465 | 2995 | inactive
CG18266 | 1 | 7.6 | 0.57 | 6135 | 6496 | inactive
IleRS-m | 1 | 1.23 | 4.05 | 6004 | 6269 | inactive
CG32260 | 1 | 3.41 | 2.32 | 6506 | 6238 | inactive
CG32260 | 2 | 1.3 | 1 | 6872 | 6803 | inactive
jet | 1 | 10.3 | 6.14 | 5589 | 5683 | inactive
jet | 2 | 5.17 | 3.78 | 6750 | 6697 | inactive
ush | 1 | 0.83 | 2.06 | 3627 | 5299 | inactive
ush | 2 | 1.21 | 0.57 | 2151 | 2100 | inactive
CG11000 | 1 | 11.8 | 5.67 | 5121 | 6151 | inactive
CG11000 | 2 | 2.48 | 4.69 | 6897 | 5927 | inactive
Sec71 | 1 | 1.6 | 4.46 | 6060 | 6122 | inactive
Prosalpha4T2 | 1 | 3.77 | 1.97 | 6718 | 6561 | inactive
Prosalpha4T2 | 2 | 10.4 | 13.1 | 5121 | 4299 | inactive
OSCP1 | 1 | 17 | 5.86 | 6318 | 6932 | inactive
Pss | 1 | 3.71 | 1.85 | 6627 | 6200 | inactive

Limited to “cell count, replicate 2” (3 entries from above):
CG13733 = 5490
CG30430 = 6701
Prx6a = 6365
